Measurements reported in PubChem BioAssay AID1259414 (Drosophila RNAi Screening Center, 2018)
The screen tested about 24,000 reagents; below is a random part of those with a known target gene and a result. Over the whole deposit, about 1,210 (5%) got an active call. 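Inactive calls also include excluded dsRNAs with several or no targets, genes unexpressed in JW18, and well A1, regardless of score.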 A number with no mark means an inactive call. The numbers tell different reagents against one gene apart. No sequences are given here.

Screen: 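Genome-wide screen for host control of endosymbiont load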 (primary screen)
Cell system: Drosophila JW18 cells infected with Wolbachia
Knock-down reagent: long dsRNA against Drosophila genes, 0.25 µg dsRNA per well of a 384-well plate
Duration: 5 days
Treatment: cells persistently infected with Wolbachia before knock-down; no added drug
Measurement: 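Automated imaging of bacterial rRNA staining divided by host cell count, reported as plate-normalised robust z-score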
Direction: Wolbachia per cell robust z: higher = more Wolbachia per host cell than the plate typical
Active means: 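Active if absolute robust z reaches 1.5 in two or more of three replicates, leaving out multi- or no-target dsRNAs, genes unexpressed in JW18 and A1 wells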

CG5039 #1
- Wolbachia per cell robust z, rep 1: -0.672
- Wolbachia per cell robust z, rep 2: -0.428
- Wolbachia per cell robust z, rep 3: -3.6

CG5039 #2
- Wolbachia per cell robust z, rep 1: 0.0402
- Wolbachia per cell robust z, rep 2: 0.396
- Wolbachia per cell robust z, rep 3: 0.123

Dh44-R2 (Diuretic hormone 44 receptor 2) #1
- Wolbachia per cell robust z, rep 1: -0.552
- Wolbachia per cell robust z, rep 2: -1.06
- Wolbachia per cell robust z, rep 3: -3.38

Dh44-R2 (Diuretic hormone 44 receptor 2) #2
- Wolbachia per cell robust z, rep 1: -1.41
- Wolbachia per cell robust z, rep 2: -2.7
- Wolbachia per cell robust z, rep 3: -0.67

CG33489 #1
- Wolbachia per cell robust z, rep 1: -0.48
- Wolbachia per cell robust z, rep 2: 0.361
- Wolbachia per cell robust z, rep 3: -7.95

CG33489 #2
- Wolbachia per cell robust z, rep 1: 0.0384
- Wolbachia per cell robust z, rep 2: -0.78
- Wolbachia per cell robust z, rep 3: 0.41

hh (hedgehog) #1
- Wolbachia per cell robust z, rep 1: -4.75
- Wolbachia per cell robust z, rep 2: 0.874
- Wolbachia per cell robust z, rep 3: 1.02

hh (hedgehog) #2
- Wolbachia per cell robust z, rep 1: -0.417
- Wolbachia per cell robust z, rep 2: 0.313
- Wolbachia per cell robust z, rep 3: -0.0218

hh (hedgehog) #3
- Wolbachia per cell robust z, rep 1: -1.02
- Wolbachia per cell robust z, rep 2: 0.0713
- Wolbachia per cell robust z, rep 3: 0.0207

Srp54 (Splicing regulatory protein 54)
- Wolbachia per cell robust z, rep 1: 0.666
- Wolbachia per cell robust z, rep 2: 0.204
- Wolbachia per cell robust z, rep 3: 2.21

Rab3
- Wolbachia per cell robust z, rep 1: 0.316
- Wolbachia per cell robust z, rep 2: -4.87
- Wolbachia per cell robust z, rep 3: -0.291

sqh (spaghetti squash) #1
- Wolbachia per cell robust z, rep 1: -1.12
- Wolbachia per cell robust z, rep 2: 0.146
- Wolbachia per cell robust z, rep 3: -9.26

sqh (spaghetti squash) #2
- Wolbachia per cell robust z, rep 1: 0.541
- Wolbachia per cell robust z, rep 2: -0.106
- Wolbachia per cell robust z, rep 3: 1.41

CG8289 #1
- Wolbachia per cell robust z, rep 1: -3.71
- Wolbachia per cell robust z, rep 2: -0.0992
- Wolbachia per cell robust z, rep 3: -0.53

CG8289 #2
- Wolbachia per cell robust z, rep 1: -1.55
- Wolbachia per cell robust z, rep 2: -0.913
- Wolbachia per cell robust z, rep 3: -1.07

Sp7 (Serine protease 7)
- Wolbachia per cell robust z, rep 1: 0.171
- Wolbachia per cell robust z, rep 2: -0.0765
- Wolbachia per cell robust z, rep 3: 0.135
